In ChEMBL document CHEMBL1155893 (J Med Chem, 2008) one finds Ratio IC50 data, which are given here for four molecules.

Structures are written as SMILES.

A short description of assay [1]: Selectivity index, ratio of IC50 for multidrug-resistant Plasmodium falciparum chloroquine-resistant W2 to IC50 for chloroquine and mefloquine-susceptible Plasmodium falciparum D6. It is filed as functional.
The nature of assay [2]: Selectivity index, ratio of IC50 for multidrug-resistant Plasmodium falciparum TM91C235 to IC50 for chloroquine and mefloquine-susceptible Plasmodium falciparum D6. It is filed as functional.

`Clc1ccc2c(NCCNCCC34CC5CC(CC(C5)C3)C4)ccnc2c1`: the values for the Ratio IC50 in assay [1] and in assay [2] were 2.27 and 1.79, respectively.

Turning to `Clc1ccc2c(NCCNCC34CC5CC(CC(C5)C3)C4)ccnc2c1`, the Ratio IC50 in assay [1] was 1.85; in assay [2], 1.81.

`Clc1ccc2c(NCCCNCC34CC5CC(CC(C5)C3)C4)ccnc2c1`: the Ratio IC50 stood at 3.13 in assay [1] and 3.15 in assay [2].

`Clc1ccc2c(NCCCNCCC34CC5CC(CC(C5)C3)C4)ccnc2c1`: the Ratio IC50 in assay [1] is 2.41; in assay [2], 7.35.
